The source of these data is ChEMBL document CHEMBL5370550, “Structure-guided optimization of adenosine mimetics as selective and potent inhibitors of coronavirus nsp14 N7-methyltransferases” (Eur J Med Chem, 2023).

Activity calls are given as the source filed them. The calls are words filed in the database; no cut-off is given here.

The assay deals with Nonstructural protein 5 (Dengue virus) (UniProt V5TFZ2). As to conditions: dengue virus type 3; dose 5.0 µM, time 30.0 min.
By inhibition is commonly meant the change of the read-out against control, counted positive when it falls. On to `CCN(C[C@H]1O[C@@H](n2cnc3c(NC)ncnc32)[C@H](O)[C@@H]1O)S(=O)(=O)c1ccc(OC)c(C#N)c1`, for which the inhibition is 80.2%.
With `COc1ccc(S(=O)(=O)N(C)C[C@H]2O[C@@H](n3cc(C#Cc4cnc5ccccc5c4)c4c(N)ncnc43)[C@H](O)[C@@H]2O)cc1C#N` the entry was “inactive”; with `COc1ccc(S(=O)(=O)N(C)C[C@H]2O[C@@H](n3cc(C#Cc4ccccc4)c4c(N)ncnc43)[C@H](O)[C@@H]2O)cc1C#N`, “inactive”; with `CNc1ncnc2c1ncn2[C@@H]1O[C@H](CNS(=O)(=O)c2ccc(OC)c(C#N)c2)[C@@H](O)[C@H]1O`, “inactive”.
